Among the data in paper doi:10.1101/2024.08.19.608619, “Discovery of potent SARS-CoV-2 nsp3 macrodomain inhibitors uncovers lack of translation to cellular antiviral response” (bioRxiv, 2024) are hill_slope values, retold here.

The structures appear in SMILES notation.

The subject of this data set is SARS-CoV-2, isolate USA-WA1/2020. It counts as cell-based. The settings on record: HeLa-ACE2 SARS-CoV-2 antiviral effect without P-gp inhibitor; dose-response fit.
The compound `CC(C)[C@H](Nc1ncnc2[nH]c(-c3cnn(C)c3C#N)cc12)c1ccc2c(n1)OCCO2` [ASAP-0010715] returned a hill_slope of -1.629.

The compound `CC(C)[C@@H](Nc1ncnc2[nH]c(-c3cnn(C)c3C#N)cc12)c1ccc2c(n1)OCCO2` [ASAP-0010716] displayed a hill_slope of -1.375.

The compound `CNCc1cc(-c2cc3c(N[C@@H](c4ccc5c(c4)S(=O)(=O)CCC5)C(C)C)ncnc3[nH]2)co1` [ASAP-0011176] gave a hill_slope of -1.471.

The compound `CC(C)C(Nc1ncnc2[nH]c(C(=O)NC3CCN(C)C3)cc12)c1ccc2c(c1)S(=O)(=O)CCC2` (stereo not shown) [ASAP-0011198] yielded a hill_slope of -0.788.

As to `Cn1ncc(-c2cc3c(N[C@@H](c4ccc5c(n4)OCCO5)C(C)(C)C)ncnc3[nH]2)c1C#N` [ASAP-0011221], the hill_slope was -0.781.

`Cc1nn(C)cc1-c1cc2c(NC(c3ccc4c(c3)S(=O)(=O)CCC4)C(C)C)ncnc2[nH]1` (stereo not shown) [ASAP-0011446] gave a hill_slope of -2.191.

`COc1ccc([C@H](Cc2nnn[nH]2)NC(=O)c2ncnc3[nH]ccc23)cc1` [ASAP-0015381] came in with a hill_slope of -1.346.
